Compound potency records, mixed from different reports. Data source: NIAID ChemDB in PubChem.

All rows: growth or infection tests; agent: HIV-2

An empty or dashed field is not shown.

| structure | cell line | method | measure | strain or isolate | changes | result |
|---|---|---|---|---|---|---|
| NC(=O)c1ccc(NC2=NS(=O)(=O)NC(Cc3ccccc3)=C2)cc1 | MT-4 | MTT | EC50 | ROD | - | >286 µM |
| Cc1c(Cc2cccc3ccccc23)nc(NCc2ccccc2)[nH]c1=O | MT-4 | MTT | EC50 | ROD | - | >33.48 µM |
| Cc1cc(N[C@@H](C)c2cccc3ccccc23)c(C(=O)C(Cl)Cl)c(=O)o1 | CEM | MTT | EC50 | ROD | - | >2 µM |
| NS(=O)(=O)c1ccc(NC2=NS(=O)(=O)NC(Cc3ccc4ccccc4c3)=C2)cc1 | MT-4 | MTT | EC50 | ROD | - | >139 µM |
| Nc1ncnc2c1ncn2/C=C/P(=O)(O)O | CEM + CEM-SS | - | EC50 | ROD | - | >200 µM |
| Cc1cc(C#Cc2cccc(N)c2)cc(C)c1Oc1ccnc(NC2CCN(Cc3ccc(C#N)cc3)CC2)n1 | MT-4 | MTT | EC50 | ROD | - | >0.261 µM |
| C1CNCCNCCCN(CCCN2CCCNCCNCCCNCC2)CCNC1 | MT-4 | cytopathic effect / MTT | EC90 | ROD | - | 1.99 µM |
| O=C(CSc1sc(Cl)nc1-c1ccc(Br)cc1Br)Nc1ccc(Cl)cc1Cl | MT-4 | MTT | EC50 | ROD | - | >159 µM |
| O=S1(=O)N=C(Nc2ccccc2)C=C(Cc2cccc3ccccc23)N1 | MT-4 | MTT | EC50 | ROD | - | >158 µM |
| COC(=O)CCc1cccc2c1OP(=O)(OC[C@@H]1C=C[C@H](n3cc(C)c(=O)[nH]c3=O)O1)OC2 | CEM + CEM/O | syncytia | EC50 | LAV-2 | - | 0.25 µM |
| O=S1(=O)NC(Cc2cccc3ccccc23)=CC(=NC2CCN(Cc3ccc(F)cc3)CC2)N1 | MT-4 | MTT | EC50 | ROD | - | >120 µM |
| COc1ccc2c(c1)COP(=O)(OC[C@H]1O[C@@H](n3cc(C)c(=O)[nH]c3=O)C[C@@H]1N=[N+]=[N-])O2 | CEM + CEM TK- | - | EC50 | - | - | 30 µM |
| CN(C)CCCNc1nc(N)nc2c1ncn2CCOCP(=O)(O)O | CEM | cytopathic effect / MTT | EC50 | ROD | - | 4 µg/mL |
| Fc1ccc2c(c1)nc1n2C(c2c(F)cccc2Cl)SC1 | MT-4 | cytopathic effect / MTT | EC50 | ROD | - | >34.7 µM |
| Cc1cn([C@H]2C[C@H](N=[N+]=[N-])[C@@H](COP3(=O)OCc4ccccc4O3)O2)c(=O)[nH]c1=O | CEM + CEM TK- | - | EC50 | - | - | >20 µM |
| CCOP(=O)(/C=C/n1cnc2c(N)ncnc21)OCC | CEM + CEM-SS | - | EC50 | ROD | - | >200 µM |
| Cc1cc(C#Cc2ccccc2)cc(C)c1Oc1ccnc(Nc2ccc(C#N)cc2)n1 | MT-4 | MTT | EC50 | ROD | - | >3.29 µM |
| O=c1[nH]c(=O)n(/C=C/P(=O)(O)O)cc1CO | CEM + CEM-SS | - | EC50 | ROD | - | >200 µM |
| Cc1ccnc2c1NC(=O)c1cccnc1N2C1CC1 | MT-4 | cytopathic effect / MTT | EC50 | ROD | - | >97.6 µM |
| CCc1c(S(=O)(=O)Cc2cccc3ccccc23)cc(C)oc1=O | CEM | MTT | EC50 | ROD | - | >2 µM |
| Cc1cn([C@H]2C[C@H](N=[N+]=[N-])[C@@H](COC(=O)CCC(=O)O)O2)c(=O)[nH]c1=O | MT-4 | cytopathic effect / MTT | EC50 | ROD | - | 0.084 µg/mL |
| COc1ccc2c(c1)nc1n2C(c2c(F)cccc2F)SC1 | MT-4 | cytopathic effect / MTT | EC50 | ROD | - | >7.8 µM |
| CCc1c(NCc2cccc3ccccc23)cc(C)oc1=O | CEM | MTT | EC50 | ROD | - | >10 µM |
| Cc1cn([C@H]2C[C@H](N=[N+]=[N-])[C@@H](COC(=O)CCC(=O)OC[C@H]3O[C@@H]4O[C@H]5[C@H](O)[C@@H](O)[C@@H](O[C@H]6[C@H](O)[C@@H](O)[C@@H](O[C@H]7[C@H](O)[C@@H](O)[C@@H](O[C@H]8[C@H](O)[C@@H](O)[C@@H](O[C@H]9[C@H](O)[C@@H](O)[C@@H](O[C@H]3[C@H](O)[C@H]4O)O[C@@H]9CO)O[C@@H]8CO)O[C@@H]7CO)O[C@@H]6CO)O[C@@H]5CO)O2)c(=O)[nH]c1=O | MT-4 | cytopathic effect / MTT | EC50 | ROD | - | 0.034 µg/mL |
| Cc1cc(C)c2c(c1)COP(=O)(OC[C@H]1O[C@@H](n3cc(C)c(=O)[nH]c3=O)C[C@@H]1N=[N+]=[N-])O2 | CEM + CEM TK- | - | EC50 | - | - | 7 µM |
| Cc1cn([C@H]2C=C[C@@H](COP3(=O)OCc4cccc(CCC(=O)OC(C)(C)C)c4O3)O2)c(=O)[nH]c1=O | CEM + CEM/O | syncytia | EC50 | LAV-2 | - | 0.5 µM |
| CC(C)CNc1nc(N)nc2c1ncn2CCOCP(=O)(O)O | CEM | cytopathic effect / MTT | EC50 | ROD | - | 0.3 µg/mL |
| Cc1cc(C#Cc2ccccc2N)cc(C)c1Oc1ccnc(Nc2ccc(C#N)cc2)n1 | MT-4 | MTT | EC50 | ROD | - | >8.883 µM |
| O=C(CSc1sc(Cl)nc1-c1ccc(Br)cc1Br)Nc1ccccc1Cl | MT-4 | MTT | EC50 | ROD | - | >17.45 µM |
| CCOP(=O)(/C=C/n1cc(F)c(=O)[nH]c1=O)OCC | CEM + CEM-SS | - | EC50 | ROD | - | >200 µM |
| O=S1(=O)N=C(Nc2ccc(Cl)cc2)C=C(Cc2ccccc2)N1 | MT-4 | MTT | EC50 | ROD | - | >179 µM |
| Nc1ncnc2c1ncn2[C@H]1CC[C@@H](CO)O1 | U-937 | virus yield | EC50 | LAV-2 | - | ~0.1 µM |
| FC(F)(F)c1ccc2nc3n(c2c1)C(c1c(Cl)cccc1Cl)SC3 | MT-4 | cytopathic effect / MTT | EC50 | ROD | - | >19.3 µM |
| O=S1(=O)N=C(Nc2ccc(Br)cc2)C=C(Cc2cccc3ccccc23)N1 | MT-4 | MTT | EC50 | ROD | - | >140 µM |
| COC(=O)C(Cc1ccccc1)NC(=O)[C@@H](NC(=O)[C@@H](C[C@H](O)[C@H](CC1CCCCC1)NC(=O)[C@@H](NC(=O)[C@H](Cc1ccccc1)CS(=O)(=O)C(C)(C)C)C(C)C)C(C)C)C(C)C | MT-4 | cytopathic effect / MTT | EC50 | EHO | RT-S102L E219D | 21.4 µM |
| Cc1cccc2c1OP(=O)(OC[C@H]1O[C@@H](n3cc(C)c(=O)[nH]c3=O)C[C@@H]1N=[N+]=[N-])OC2 | CEM + CEM TK- | - | EC50 | - | - | 15 µM |
| Cc1cccc2c1OP(=O)(OC[C@@H]1C=C[C@H](n3cc(C)c(=O)[nH]c3=O)O1)OC2 | CEM + CEM/O | syncytia | EC50 | LAV-2 | - | 0.1 µM |
| C#C[C@]1(CO)O[C@@H](n2cnc3c(N)nc(F)nc32)CC1O | MAGIC-5A | β-galactosidase / absorbance | EC50 | ROD9 | K65R | 0.00017 µM |
| Cc1cc(NCc2ccccc2)cc(=O)o1 | CEM | MTT | EC50 | ROD | - | >250 µM |
| O=S1(=O)NC(Cc2ccccc2)=CC(=NCc2ccccc2)N1 | MT-4 | MTT | EC50 | ROD | - | >238 µM |
| CC(=O)c1ccc(C)cc1NC(C(N)=O)c1c(Cl)cccc1Cl | MT-4 | cytopathic effect / MTT | EC50 | EHO | - | 7.4 µM |
| Cc1cc(C)c(CN2CCC(N=C3C=C(Cc4ccc(Cl)cc4Cl)NS(=O)(=O)N3)CC2)c(C)c1 | MT-4 | MTT | EC50 | ROD | - | >37.35 µM |
| Cc1cn([C@H]2C[C@H](N=[N+]=[N-])[C@@H](CO)O2)c(=O)[nH]c1=O | MAGIC-5A | β-galactosidase / absorbance | EC50 | ROD9 | - | 0.028 µM |
| O=[N+]([O-])c1ccc(CN2CCC(N=C3C=C(Cc4ccc(Cl)cc4Cl)NS(=O)(=O)N3)CC2)cc1 | MT-4 | MTT | EC50 | ROD | - | >97.06 µM |
| C1CNCCNCCCN[C@H]([C@@H]2CNCCCNCCNCCCN2)CNC1 | CEM | antigen | EC50 | ROD | - | 0.14 µM |
| CCc1c(Cc2cccc3ccccc23)nc(Nc2ccc(Cl)cc2)[nH]c1=O | MT-4 | MTT | EC50 | ROD | - | >152.1 µM |
| Cc1cn([C@H]2C[C@H](N=[N+]=[N-])[C@@H](CO)O2)c(=O)[nH]c1=O | CEM + CEM-SS | cytopathic effect / XTT | EC50 | ROD | - | 0.005 µM |
| CCN(CC)c1nc(Cc2cccc3ccccc23)cc(=O)[nH]1 | MT-4 | MTT | EC50 | ROD | - | >72.55 µM |
| CC(=O)Nc1cccc(C#Cc2cc(C)c(Oc3ccnc(Nc4ccc(C#N)cc4)n3)c(C)c2)c1 | MT-4 | MTT | EC50 | ROD | - | >0.844 µM |
| Nc1ncnc2c1ncn2/C=C\P(=O)(O)O | CEM + CEM-SS | - | EC50 | ROD | - | >200 µM |
| COc1c(O)c(Cl)c2c(c1OC)-c1c(c(Cl)c(O)c(OC)c1OC)C[C@H](C)[C@H](C)C2 | MT-4 | cytopathic effect / MTT | EC50 | CBL-20 | - | >22 µM |
| CCCCNc1nc(N)nc2c1[nH]c[n+]2C[C@@H](C)OCP(=O)(O)O | MT-4 | cytopathic effect / MTT | EC50 | ROD | - | 9.8 ± 4.9 µg/mL |
| O=C(c1ccccc1)c1ccc2c(c1)nc1n2C(c2c(Cl)cccc2Cl)SC1 | MT-4 | cytopathic effect / MTT | EC50 | ROD | - | >28.3 µM |
| COc1ccc(CN2CCC(N=C3C=C(Cc4ccc(Cl)cc4Cl)NS(=O)(=O)N3)CC2)cc1 | MT-4 | MTT | EC50 | ROD | - | >109 µM |
| Cc1cc(C#Cc2cccc(N)c2)cc(C)c1Oc1ccnc(NC2CCN(Cc3cccc(C(N)=O)c3)CC2)n1 | MT-4 | MTT | EC50 | ROD | - | >0.63 µM |
| Cc1cn([C@H]2C[C@H](N=[N+]=[N-])[C@@H](CO)O2)c(=O)[nH]c1=O | MT-4 | cytopathic effect / MTT | EC50 | CBL-20 | - | 0.024 µM |
| CCOP(=O)(/C=C\n1cc(I)c(=O)[nH]c1=O)OCC | CEM + CEM-SS | - | EC50 | ROD | - | >200 µM |
| O=C(CSc1sc(Cl)nc1-c1ccc(Br)cc1Br)Nc1ccccc1F | MT-4 | MTT | EC50 | ROD | - | >33.18 µM |
| Cc1cc(C#Cc2ccc(C(F)(F)F)cc2)cc(C)c1Oc1ccnc(Nc2ccc(C#N)cc2)n1 | MT-4 | MTT | EC50 | ROD | - | >7.353 µM |
| O=P(O)(O)COCCn1cnc2c(NC3CCCCC3)ncnc21 | CEM | cytopathic effect / MTT | EC50 | ROD | - | >100 µg/mL |
| Cc1cn([C@H]2C[C@H](N=[N+]=[N-])[C@@H](CO)O2)c(=O)[nH]c1=O | MT-4 | MTT | EC50 | ROD | - | 0.0067 µM |
| COc1c(O)c(Br)c2c(c1OC)-c1c(c(Br)c(O)c(OC)c1OC)C[C@H](C)[C@H](C)C2 | MT-4 | cytopathic effect / MTT | EC50 | CBL-20 | - | >18 µM |
| Cc1cn([C@H]2C[C@H](N=[N+]=[N-])[C@@H](COC(=O)CCC(=O)OC[C@H]3O[C@@H]4O[C@H]5[C@H](O)[C@@H](O)[C@@H](O[C@H]6[C@H](O)[C@@H](O)[C@@H](O[C@H]7[C@H](O)[C@@H](O)[C@@H](O[C@H]8[C@H](O)[C@@H](O)[C@@H](O[C@H]9[C@H](O)[C@@H](O)[C@@H](O[C@H]%10[C@H](O)[C@@H](O)[C@@H](O[C@H]3[C@H](O)[C@H]4O)O[C@@H]%10CO)O[C@@H]9CO)O[C@@H]8CO)O[C@@H]7CO)O[C@@H]6CO)O[C@@H]5CO)O2)c(=O)[nH]c1=O | MT-4 | cytopathic effect / MTT | EC50 | ROD | - | 0.102 µg/mL |
| Cc1ccc(/C=C/c2cc(C)c(Oc3ccnc(Nc4ccc(C#N)cc4)n3)c(C)c2)cc1 | MT-4 | MTT | EC50 | ROD | - | >8.51 µM |
| CCCCCNc1nc(N)nc2c1[nH]c[n+]2C[C@@H](C)OCP(=O)(O)O | MT-4 | cytopathic effect / MTT | EC50 | ROD | - | 37.7 ± 5.8 µg/mL |
| CCCNc1nc(Cc2cccc3ccccc23)c(C)c(=O)[nH]1 | MT-4 | MTT | EC50 | ROD | - | >41.97 µM |
| NC(=O)c1ccc(NC2=NS(=O)(=O)NC(Cc3ccc4ccccc4c3)=C2)cc1 | MT-4 | MTT | EC50 | ROD | - | >245 µM |
| CCc1c(Cc2cccc3ccccc23)nc(N(C)C)[nH]c1=O | MT-4 | MTT | EC50 | ROD | - | >20.98 µM |
| C1CNCCNCCCNCCNC1 | MT-4 | cytopathic effect / MTT | EC50 | ROD | - | 150 µM |
| Nc1nc(-c2ccc(Br)cc2Br)c(SCC(=O)Nc2cccnc2Cl)s1 | MT-4 | MTT | EC50 | ROD | - | >45.73 µM |
| O=C(c1ccccc1)c1ccc2c(c1)nc1n2C(c2c(F)cccc2F)SC1 | MT-4 | cytopathic effect / MTT | EC50 | ROD | - | >26.7 µM |
| CCOP(=O)(/C=C\n1cnc2c(=O)[nH]c(NC(C)=O)nc21)OCC | CEM + CEM-SS | - | EC50 | ROD | - | >200 µM |

Lines come from different laboratories, so protocols vary. ECn is the concentration giving n% inhibition of infection, replication or growth.